Reference: article PMC7587356, “High-Throughput Screening for Inhibitors of the SARS-CoV-2 Protease Using a FRET-Biosensor” (Molecules, 2020)

Tested on: eCFP-Venus biosensor
Assay: Counter-screen without protease for compounds interfering with FRET
[1] = no protease, LOPAC counter-screen

| SMILES | effect on FRET signal (R528/477) in the absence of protease | effect on FRET signal (R528/477) in the absence of protease [1] |
| --- | --- | --- |
| OCCN(CCO)c1nc(N2CCCCC2)c2nc(N(CCO)CCO)nc(N3CCCCC3)c2n1 [dipyridamole] | large reduction in fluorescence | – |
| O=C(Nc1cccc(C(=O)Nc2ccc(S(=O)(=O)O)c3cc(S(=O)(=O)O)cc(S(=O)(=O)O)c23)c1)Nc1cccc(C(=O)Nc2ccc(S(=O)(=O)O)c3cc(S(=O)(=O)O)cc(S(=O)(=O)O)c23)c1 [NF 023, reference compound] | – | large reduction in fluorescence |
| O=C1c2ccccc2-c2n[nH]c3cccc1c23 [anthrapyrazolone] | – | large reduction in fluorescence |

Read-outs that look alike come from different tables or passages of the source. Some compounds share one wording; it may come from a single statement.
